Measured values from several laboratories, pooled; numbers as filed in NIAID ChemDB.

All rows: whole-cell or culture tests; agent: Candida albicans

MIC50, MIC90 and the like: level of inhibition, or share of isolates inhibited. An empty or dashed field is not shown. Two numbers with a dash give a range or band. Conditions beyond the fields shown may differ between rows. ECn: concentration that inhibits the pathogen or its effect by n%.

SMILES | read by | read-out | strain | value
Cc1ccc(O)c(C(=O)/C=C/c2ccc(O)cc2O)c1 | - | MIC | SDAU6 | 75 µg/mL
N=C(N)c1ccc2nc(-c3ccc(-c4nc5ccc(C(=N)N)cc5[nH]4)[nH]3)[nH]c2c1 | - | MIC | Isolate CA1548 | 0.39 µg/mL
CCN(CC)CCn1c2ccccc2c(=O)c2c([N+](=O)[O-])cccc21 | - | MFC | CNCM 1180-79 | >1000 µg/mL
NC(=O)C1=C(O)OC2=C(CSc3ccccc32)C1c1ccccc1 | - | MIC | - | 100 µg/mL
CCOC(=O)C(=C1SCCCS1)n1ccnc1 | - | MIC | - | >100 µg/mL
O=NN(CC(=O)O)c1ccc(C(=O)/C=C/c2nc3ccccc3c(=O)n2-c2ccccc2)cc1 | - | MIC | - | 100 µg/mL
N#CC1=C(N)OC2=C(CSc3ccccc32)C1c1ccc2c(c1)OCO2 | - | MIC | - | 50 µg/mL
Cc1cccc(C(=O)OC2CC(C)CCC2C(C)C)c1 | - | MIC | - | 11.48 µM
C[C@H]1[C@H](O)[C@@H](C)/C=C/C=C/C=C/C=C/C=C/C=C/C=C/[C@H](O[C@@H]2O[C@H](C)[C@@H](O)[C@H](N)[C@@H]2O)C[C@@H]2O[C@](O)(C[C@@H](O)C[C@@H](O)CC[C@H](O)[C@@H](O)C[C@@H](O)CC(=O)O[C@H]1C)C[C@H](O)[C@H]2C(=O)O | - | MIC | R89-208 | 0.5 µg/mL
O=C(/C=C/c1nc2ccccc2c(=O)n1-c1ccccc1)c1ccc(N2CC(O)ON2)cc1 | - | MIC | - | >200 µg/mL
COc1ccc(C=NC23CC4CC(CC(C4)C2)C3)cc1O | - | MIC | - | 128 µg/mL
N=C(N)c1ccc(/C=C/c2cc3ccc(C(=N)N)cc3[nH]2)cc1 | - | MIC | - | 3 µg/mL
COc1cc([C@H]2COc3c(ccc(O)c3OC)C2)c(OC)c(OC)c1OC | - | MIC | - | >200 µg/mL
CC1CCCC[C@H]2C(=O)C=C[C@H]3OC(/C=C/C=C/C=C/C(=O)O)=C(C(=O)O1)[C@@H]32 | - | MIC | - | >32 µg/mL
COc1ccc(N2C(=O)C[C@@H](C)C2=O)cc1 | broth dilution / turbidity | MIC | ATCC 10231 | 125 µg/mL
CCCCCCCC(=O)Nc1ccc(N2CCN(CC(O)(Cn3cncn3)c3ccc(F)cc3F)CC2)c(F)c1 | broth dilution | MIC80 | - | 0.00097 µg/mL
CCCOc1nc2c(c(-c3ccc4c(c3)OCO4)c1C#N)CSc1ccc(Cl)cc1-2 | - | MIC | - | 50 µg/mL
OCCNc1nnc2c(cnc3ccccc32)n1 | - | MIC | M-3 | 40 µg/mL
CCC(C)CC(C)CCCCCCCCC(=O)N[C@H]1C[C@@H](O)[C@@H](OCCN)NC(=O)[C@@H]2C[C@@H](O)CN2C(=O)[C@H]([C@H](O)CC(N)=O)NC(=O)[C@H]([C@H](O)[C@@H](O)c2ccc(O)cc2)NC(=O)[C@@H]2C[C@@H](O)CN2C(=O)[C@H]([C@@H](C)O)NC1=O | - | MIC | 40 isolates | 16 µg/mL
COc1cc(C2C(C#N)=C(N)OC3=C2CSc2ccccc23)ccc1O | - | MIC | - | 25 µg/mL
CCN(CC)CCSc1c2ccccc2nc2cccc([N+](=O)[O-])c12 | - | MIC | CNCM 1180-79 | 500 µg/mL
C/C=C/C/C=C/CCC(=O)[C@H]1O[C@H]1C(N)=O | - | MIC | - | ≤1.5 µg/mL
CC1=CS/C(=C(/C#N)n2ccnc2)S1 | - | MIC | - | >100 µg/mL
COc1nnc2c(cnc3ccccc32)n1 | - | MIC | M-3 | 20 µg/mL
C[C@@H]1CC(=O)N(c2ccc(Cl)cc2)C1=O | broth dilution / turbidity | MIC | ATCC 10231 | 125 µg/mL
COc1nc2c(c(-c3ccc(C)cc3)c1C#N)CSc1ccccc1-2 | - | MIC | - | 50 µg/mL
N#CC(=C1SCCCS1)n1ccnc1 | - | MIC | - | 100 µg/mL
O=C(O)CNc1ccc(C(=O)/C=C/c2nc3ccccc3c(=O)n2-c2ccccc2)cc1 | - | MIC | - | >200 µg/mL
C[C@@H]1[C@H](O)[C@@H](C)/C=C/C=C/C=C/C=C/C=C/C=C/C=C/[C@H](O[C@@H]2O[C@H](C)[C@@H](O)[C@H](N)[C@@H]2O)C[C@@H]2O[C@](O)(C[C@@H](O)C[C@@H](O)[C@H](O)CC[C@@H](O)C[C@@H](O)CC(=O)O[C@H]1C)C[C@H](O)[C@H]2C(=O)O | - | MIC | ATCC 10231 | 2.5 µg/mL
O=c1oc2c(Br)cc(Br)cc2cc1-c1nc2ccccc2c2nc3c4nsnc4ccc3n12 | - | MIC | - | 4 µg/mL
O=C(O)CNc1ccc(C(=O)/C=C/c2nc3ccccc3c(=O)n2-c2ccc(Br)cc2)cc1 | - | MIC | - | >200 µg/mL
CCCCCCCCCCCCCCCC(=O)NCCCN | broth dilution | MIC | ATCC 18804 | 4 µg/mL
O=C(/C=C/c1nc2ccccc2c(=O)n1-c1ccc(Br)cc1)c1ccc(N2CC(O)ON2)cc1 | - | MIC | - | >200 µg/mL
COc1ccc(-c2c(C#N)c(OC)nc3c2CSc2ccc(OC)cc2-3)cc1 | - | MIC | - | 100 µg/mL
O=C(C(=C1SCCCS1)n1ccnc1)c1ccc(Cl)cc1 | - | MIC | - | >100 µg/mL
N=C(N)c1ccc2sc(/C=C/c3cc4cc(C(=N)N)ccc4s3)cc2c1 | - | MIC | - | >60 µg/mL
C[C@@H]1CC(=O)N(Cc2ccccc2)C1=O | broth dilution / turbidity | MIC | ATCC 10231 | 15.6 µg/mL
COc1ccc(-c2c(C#N)c(OC)nc3c2CSc2ccccc2-3)cc1 | - | MIC | - | 50 µg/mL
O=C1CCCC2=C1C(c1ccc(F)cc1)N1C(=O)CSC1=N2 | - | MIC | AUCC-1720 | 100 µg/mL
CCCCCCCCCCCCCC(=O)NCCCN | broth dilution | MIC | ATCC 18804 | 4 µg/mL
c1csc(-c2nnc(C3C4CC5CC(C4)CC3C5)o2)c1 | - | MIC | IFO 0583 | 2 µg/mL
Cc1ccc(C(C)C)cc1O | - | MLC | ATCC 10231 | 0.16–0.32 µg/mL
CC1CCC(C(C)C)C(OC(=O)c2ccccc2Cl)C1 | - | MIC | - | 10.72 µM
CCC(C)N1N=CN(c2ccc(N3CCN(c4ccc(OC[C@H]5CO[C@](Cn6cncn6)(c6ccc(F)cc6F)O5)cc4)CC3)cc2)C1O | - | MIC90 | 10 strains | 0.03 µg/mL
O=c1c2sc(=S)n(-c3ccccc3)c2[nH]c(=S)n1-c1ccccc1 | - | MIC | DSM 70443 | 80 µg/mL
CCCCCCCCCCSCC(OC)C(=O)O | - | MIC | ATCC 60193 | 0.00124 µM
Cc1ccc(-n2c(/C=C/C(=O)c3ccc(N(CC(=O)O)N=O)cc3)nc3ccccc3c2=O)cc1 | - | MIC | - | 50 µg/mL
CCCCCOc1ccc(-c2cc(-c3ccc(C(=O)N[C@H]4C[C@@H](O)[C@@H](O)NC(=O)[C@@H]5[C@@H](O)[C@@H](C)CN5C(=O)[C@H]([C@H](O)CC(N)=O)NC(=O)[C@H]([C@H](O)[C@@H](O)c5ccc(O)c(OS(=O)(=O)O)c5)NC(=O)[C@@H]5C[C@@H](O)CN5C(=O)[C@H]([C@@H](C)O)NC4=O)cc3)no2)cc1 | - | MIC90 | 24 strains | 0.0156 µg/mL
Cn1c2ccccc2c(=O)c2c([N+](=O)[O-])ccc(CCN)c21 | - | MFC | CNCM 1180-79 | 500 µg/mL
CC1(C)S[C@@H]2[C@H](NC(=O)Cc3ccccc3)C(=O)N2[C@H]1C(=O)O | - | MIC | ATCC 10231 | 6.3 µg/mL
CCC(C)CC(C)CCCCCCCCC(=O)N[C@@H]1C[C@@H](O)[C@@H](O)NC(=O)[C@@H]2[C@@H](O)CCN2C(=O)[C@H]([C@@H](O)CCN)NC(=O)[C@H]([C@H](O)[C@@H](O)c2ccc(O)cc2)NC(=O)[C@@H]2C[C@@H](O)CN2C(=O)[C@H]([C@H](C)O)NC1=O | - | MIC | 40 isolates | 0.12 µg/mL
CC1CCC(C(C)C)C(OC(=O)/C=C/c2ccc([N+](=O)[O-])cc2)C1 | - | MIC | - | 4.68 µM
N#CC1=C(N)OC2=C(SC3=NC4=C(C(=O)CCC4)C(c4ccc(F)cc4)N32)C1c1ccc(Cl)cc1 | - | MIC | AUCC-1720 | 100 µg/mL
[N-]=[N+]=Nc1nc2c(sc(=S)n2-c2ccccc2)c(=O)n1-c1ccccc1 | - | MIC | DSM 70443 | 40 µg/mL
Cc1cc(O)c(C(C)C)cc1N1CCCCC1 | - | MIC | ATCC 36232 | >143 µg/mL
N=C(N)c1ccc2[nH]c(/C=C/c3cc4cc(C(=N)N)ccc4s3)cc2c1 | - | MIC | - | >60 µg/mL
Cc1cccc(-n2c(=S)[nH]c3c(sc(=S)n3-c3ccccc3C)c2=O)c1 | - | MIC | DSM 70443 | 80 µg/mL
C/C=C/C(=O)O[C@@H]1[C@@H](C)COC(=O)C2OC2=CC[C@@H]1O | absorbance | EC50 | - | 2 µg/mL
CCSc1ccc([N+](=O)[O-])c2c(SCC)c3ccccc3nc12 | - | MFC | CNCM 1180-79 | >500 µg/mL

5 of the rows above, restated:

SMILES,read by,read-out,strain,value
CC1CCC(C(C)C)C(OC(=O)/C=C/c2ccc([N+](=O)[O-])cc2)C1,-,MIC,-,4.68 µM
CCCCCCCCCCCCCCCC(=O)NCCCN,broth dilution,MIC,ATCC 18804,4 µg/mL
CC1(C)S[C@@H]2[C@H](NC(=O)Cc3ccccc3)C(=O)N2[C@H]1C(=O)O,-,MIC,ATCC 10231,6.3 µg/mL
C[C@@H]1[C@H](O)[C@@H](C)/C=C/C=C/C=C/C=C/C=C/C=C/C=C/[C@H](O[C@@H]2O[C@H](C)[C@@H](O)[C@H](N)[C@@H]2O)C[C@@H]2O[C@](O)(C[C@@H](O)C[C@@H](O)[C@H](O)CC[C@@H](O)C[C@@H](O)CC(=O)O[C@H]1C)C[C@H](O)[C@H]2C(=O)O,-,MIC,ATCC 10231,2.5 µg/mL
COc1ccc(N2C(=O)C[C@@H](C)C2=O)cc1,broth dilution / turbidity,MIC,ATCC 10231,125 µg/mL